Pooled drug test results. Numbers come from NIAID ChemDB, via PubChem.

All rows: growth or infection tests; organism: Mycobacterium tuberculosis

Inhibition is in % at the dose shown (toxicity tests: loss of growth or viability). Neighbouring rows are from separate reports. MIC bound: limit read from a one-dose screen. ECn is the concentration giving n% inhibition of infection, replication or growth. MIC50, MIC90 and the like: level of inhibition, or share of isolates inhibited. An empty or dashed field is not shown.

SMILES,cells,mutations,conditions,endpoint,strain or isolate,tested at,method,result
Cc1ncc2c(n1)-c1ccccc1OC2O,,,,inhibition,H37Rv,12.5 µg/mL,BACTEC,-3%
N#Cc1nc2cc(Cl)ccc2nc1Cl,,,,inhibition,H37Rv,12.5 µg/mL,,58%
CO[C@H]1CCC[C@H]2C1=C(C(=O)O)N1C(=O)[C@H]([C@@H](C)O)[C@@H]21,THP-1,,,MIC90,H37Rv,,luminescence,5.57 µM
CCCCCN(C)Cc1cc(C(=O)O)ccc1Nc1ccnc(Nc2ccc3cc(C)[nH]c3c2)n1,,,,MIC,H37Rv,,resazurin,8 µg/mL
CSCCC(NC(=O)OC(C)(C)C)C(=O)NC(CCSC)C(=O)NC(C)C(=O)O,,,,MIC bound,H37Rv,,BACTEC,>12.5 µg/mL
O=C(Nc1ccccc1C(F)(F)F)c1cccc2nc3ccccc3nc12,,,,MIC,H37Rv 27294,,,0.39 µg/mL
Oc1ccccc1/C=N/N1C(=S)N(c2ccccc2)C(=Nc2ccccc2)C1=Nc1ccccc1,,,,inhibition,H37Rv,12.5 µg/mL,BACTEC,0%
Cc1cccc(N=Nc2c(O)c3ccc([N+](=O)[O-])cc3[nH]c2=O)c1,,,,MIC,H37Rv,,resazurin,>6.25 µg/mL
O=c1ccc2ncccc2n1CCN1CCC(NCc2cc(Cl)c(Cl)cn2)CC1,,,,MIC,Beijing 1237,,resazurin,0.15 µg/mL
Cc1cnc(C)c(NS(=O)(=O)c2ccc(N)cc2)n1,,,,MIC,H37Rv,,BACTEC,≥12.5 µg/mL
Cc1ccc(Cl)c(Nc2nnc(-c3sc4ccc(Cl)cc4c3Cl)s2)c1,,,,inhibition,H37Rv,6.25 µg/mL,BACTEC,0%
NC(=O)NCCCC(N)C(=O)O,,,,MIC,H37Rv,,BACTEC,≥128 µg/mL
C=CCNC(=S)Nc1ccc(C(C)=O)cc1,,,,MIC,H37Rv,,,5 µg/mL
c1cc2c3c(cccc3c1)NC1(CCCC1)N2,,,,MIC,H37Rv,,BACTEC,≥12.8 µg/mL
CNC(=S)Nc1ccc(C(C)=O)cc1,,,,MIC,H37Rv,,,5 µg/mL
COc1ccc(C(=O)/C=C/c2ccc(F)cc2)cc1F,,,14 d,MIC,H37Rv,,resazurin,128 µg/mL
COc1ccc(OC)c(-c2nc(=O)ss2)c1,,,,MIC90,H37Rv,,broth dilution,16 µg/mL
O=C(/C=C/c1ccc(F)cc1)c1ccc(O)cc1,,,21 d,MIC,H37Rv,,resazurin,32 µg/mL
O=C(NNC(=S)Nc1ccc(Br)cc1)c1ccncc1,,,,MIC,INH resistant,,,2.22 µM
Nc1ccc(N)c2c1Oc1ccccc1O2,,,,MIC bound,H37Rv,,resazurin,>6.25 µg/mL
COc1cc([C@](O)(CCN(C)C)[C@@H](c2cc(-c3ccncc3)cnc2OC)c2cccc(OC)c2F)cc(OC)n1,,,,MIC90,H37Rv,,resazurin,11.42 µM
O=c1oc(-c2cccnc2Cl)ns1,,,,MIC99,H37Rv,,broth dilution,32 µg/mL
Cc1ccc(NC(=S)NNC(=O)c2ccncc2)cc1,,,,MIC,WT,,,5.44 µM
O=Nc1c2c(-n3ccnc3)[nH]c3ccc(Br)cc3c-2c2ccccc12,,,,MIC,H37Rv,,BACTEC / radiometric,<0.99 µM
CC1(C)O[C@H]2[C@@H](O1)[C@@H](Cn1cnc([N+](=O)[O-])c1)O[C@@H]1OC(C)(C)O[C@@H]12,,,,MIC,H37Rv,,agar,>12.5 µg/mL
Cc1cccc(C)c1N1C(=O)C(=O)C(c2nc3ccccc3s2)/C(=N/NC(=O)c2ccccc2O)C1=O,,,,inhibition,H37Rv,12.5 µg/mL,BACTEC,2%
O=C(Nc1cccc(F)c1)c1cccc2nc3ccccc3nc12,,,,MIC,H37Rv 27294,,,0.78 µg/mL
Cc1sc(N=C(Nc2ccccc2)Nc2ccccc2)nc1-c1ccccc1,,,,MIC,H37Rv,,BACTEC,6.25 µg/mL
N#Cc1nc2cc(Cl)ccc2nc1N,,,,EC50,H37Rv,,,>12.5 µg/mL
O=c1[nH]c2c(Cl)c(Cl)ccc2c(O)c1N=Nc1cccc(F)c1,,,,MIC,H37Rv,,resazurin,<6.25 µg/mL
C[C@@H]1O[C@@H](O[C@H]2[C@H](O[C@H]3CC[C@]4(C)[C@H]5CC=C6[C@@H]7CC(C)(C)CC[C@]7(CO)C(O)C[C@@]6(C)[C@]5(C)CC[C@H]4C3(C)C)O[C@H](C(=O)O)[C@H](O[C@@H]3O[C@H](CO[C@@H]4O[C@H](CO)[C@H](O)[C@H](O)[C@H]4O)[C@@H](O)[C@H](O)[C@H]3O)[C@@H]2O)[C@H](O)[C@H](O)[C@H]1O,,,,inhibition,H37Rv,12.5 µg/mL,BACTEC,-2%
COc1ccc(C(=O)/C=C/c2ccccc2Cl)cc1,,,14 d,MIC,H37Rv,,MTT,32 µg/mL
COC(=O)c1ccc(NC(=O)c2cccc3nc4ccccc4nc23)cc1,,,,MIC,H37Rv 27294,,,25 µg/mL
CC[C@@H](CO)NCCN[C@@H](CC)CO,,,,MIC,H37Rv,,MTT,8 µM
N=C(N)N=Nc1cc(O)c(NN=C(N)N)cc1O,,,,inhibition,H37Rv,12.5 µg/mL,BACTEC,-6%
O=C(/C=C/c1ccccc1)c1ccccc1,,,21 d,MIC,H37Rv,,MTT,32 µg/mL
Cc1ccc(NC(=S)NNC(=O)c2sc3ccc(Cl)cc3c2Cl)cc1,,,,inhibition,H37Rv,6.25 µg/mL,BACTEC,22%
C[C@H](O)[C@H]1C(=O)N2C(C(=O)O)=C(S[C@@H]3CN[C@H](C(=O)N(C)C)C3)[C@H](C)[C@H]12,,,,MIC,H37Rv,,resazurin,31.7 µM
O=C(NNC(=S)Nc1ccccc1Cl)c1sc2ccc(Cl)cc2c1Cl,,,,inhibition,H37Rv,6.25 µg/mL,BACTEC,0%
NC[C@H]1O[C@H](O[C@H]2[C@H](O)[C@@H](O[C@H]3O[C@H](CO)[C@@H](O)[C@H](N)[C@H]3O)[C@H](N)C[C@@H]2N)[C@H](O)[C@@H](O)[C@@H]1O,,,,MIC,Isolate CKN64-20 (rrs A1401G mutation),,,>80 µg/mL
O=[N+]([O-])c1ccccc1Nc1nnc(-c2sc3ccc(Cl)cc3c2Cl)s1,,,,inhibition,H37Rv,6.25 µg/mL,BACTEC,98%
S=C(S)N1CCCC1,,,,inhibition,H37Rv,12.5 µg/mL,BACTEC,100%
CC1(C)S[C@@H]2[C@H](NC(=O)[C@H](N)c3ccc(O)cc3)C(=O)N2[C@H]1C(=O)O,,,,inhibition,H37Rv,42 µg/mL,resazurin,80%
O=C(C1=Cc2ccccc2OC1)N1CCN(c2cccc(Cl)c2)CC1,,,,inhibition,H37Rv,6.25 µg/mL,resazurin,24%
C[C@H]1COc2c(N3CCN(C)CC3)c(F)cc3c(=O)c(C(=O)O)cn1c23,,,,MIC50,27 strains (levofloxacin-susceptible),,,0.39 µg/mL
O=c1[nH]c2ccc(Cl)cc2c(O)c1N=Nc1ccc(F)cc1,,,,MIC,H37Rv,,resazurin,<6.25 µg/mL
Cc1ccccc1Nc1nnc(-c2sc3ccc(Cl)cc3c2Cl)s1,,,,inhibition,H37Rv,6.25 µg/mL,BACTEC,0%
CCCCCCCCCCCCCCCOC(COC[C@H]1O[C@@H]2OC(C)(C)O[C@@H]2[C@H]2OC(C)(C)O[C@H]21)Cn1cnc([N+](=O)[O-])c1C,,,,MIC,H37Rv,,agar,3.13 µg/mL
O=c1[nH]c2c(Cl)cccc2c(O)c1N=Nc1ccccc1Cl,,,,inhibition,H37Rv,6.25 µg/mL,resazurin,7%
COc1cccc(N=Nc2c(C)[nH]n(C(N)=S)c2=O)c1,,,,MIC bound,H37Rv,,BACTEC,>12.8 µg/mL
COc1cc([C@](O)(CCN(C)C)[C@@H](c2cc(-c3ccccn3)cnc2OC)c2cccc(OC)c2F)cc(OC)n1,,,,MIC90,H37Rv,,resazurin,7.65 µM
O=c1nc(-c2ccc3ccccc3c2)ss1,,,,MIC90,H37Rv,,broth dilution,16 µg/mL
O=C(Cn1cnc2ccc([N+](=O)[O-])cc21)N1CCN(c2ccccc2)CC1,,,,inhibition,H37Rv,6.25 µg/mL,resazurin,2%
COc1nc2ccc(Br)cc2cc1[C@@H](c1ccccc1)[C@@](O)(CCN(C)C)c1cccc2ccccc12,,,,MIC90,clinical isolate MAL020148,,resazurin,0.03125 µg/mL
CC[C@H]1OC(=O)[C@H](C)[C@@H](O[C@H]2C[C@@](C)(OC)[C@@H](O)[C@H](C)O2)[C@H](C)[C@@H](O[C@@H]2O[C@H](C)C[C@H](N(C)C)[C@H]2O)[C@](C)(OC)C[C@@H](C)C(=O)[C@H](C)[C@@H](O)[C@]1(C)O,,,,MIC50,23 strains (rifampin- isoniazid-susceptible),,,25 µg/mL
CCC(=O)c1ccc(NC(=S)NC)cc1,,,,MIC,H37Rv,,,5 µg/mL
OC(c1ccc(F)cc1)(c1cccs1)C1CC1,,,,inhibition,H37Rv,6.25 µg/mL,,29%
COc1ccccc1N=Nc1c(O)c2cccc([N+](=O)[O-])c2[nH]c1=O,,,,inhibition,H37Rv,6.25 µg/mL,resazurin,32%
CC1(C)O[C@H]2[C@@H](O1)[C@@H](C[N+]1=NC([N+](=O)[O-])N=C1)O[C@@H]1OC(C)(C)O[C@@H]12,,,,MIC,H37Rv,,agar,12.5 µg/mL
COc1c(N2CCNC(C)C2)c(F)cc2c(=O)c(C(=O)O)cn(C3CC3)c12,,,,MIC,H37Rv,,,0.1 µg/mL
O=C(NNC(=S)Nc1ccccc1C(F)(F)F)c1ccncc1,,,,MIC,WT,,,0.58 µM
Cc1ccc(NC(=O)c2cccc3nc4ccccc4nc23)cc1,,,,MIC,H37Rv 27294,,,0.78 µg/mL
O=c1oc(-c2ccc3ccccc3c2)ns1,,,,MIC99,H37Rv,,broth dilution,32 µg/mL
Cn1cc(Cc2c[nH]c3ccccc3c2=O)c2ccccc21,,,,MIC bound,H37Rv,,BACTEC,>6.25 µg/mL
COc1nc2ccc(Br)cc2c2c1C(C)(OCC(O)Cn1ccnc1)c1ccccc1-2,,,,MIC,H37Rv,,BACTEC / radiometric,6.51 µM
NNC(=O)c1ccncc1,,,,MIC,INH resistant,,,91.14 µM
O=[N+]([O-])c1ccc(/C=C(\c2ccc([N+](=O)[O-])o2)S(=O)(=O)c2ccccc2)o1,,,,MIC bound,H37Rv,,BACTEC,≤12.5 µg/mL
NNC(=O)c1ccncc1,,,,MIC90,18 strains (levofloxacin-resistant),,,>100 µg/mL
COc1cc(C(O)(CCN(C)C)C(c2cc(-c3cccc(C#N)c3)cnc2OC)c2cccc(OC)c2F)cc(OC)n1,,,,MIC90,H37Rv,,resazurin,6.2 µM
CC1COc2c(N3CCN(C)CC3)c(F)cc3c(=O)c(C(=O)O)cn1c23,,,,MIC,CDC1551,,resazurin,0.3 µg/mL
O=c1nc(-c2cnccn2)ss1,,,,MIC90,H37Rv,,broth dilution,8 µg/mL
O=c1[nH]c2cc([N+](=O)[O-])ccc2c(O)c1N=Nc1cccc(Cl)c1Cl,,,,inhibition,H37Rv,6.25 µg/mL,resazurin,21%
Cc1cccc(NC(=S)NNC(=O)c2sc3ccc(Cl)cc3c2Cl)c1C,,,,inhibition,H37Rv,6.25 µg/mL,BACTEC,28%
O=C(/C=C/c1ccccc1Cl)c1ccc(F)cc1,,,,MIC,H37Rv,,MTT,32 µg/mL
CCCCCCCCCCCCCCCC(=O)OC(COC[C@H]1O[C@@H]2OC(C)(C)O[C@@H]2[C@H]2OC(C)(C)O[C@H]21)Cn1cnc([N+](=O)[O-])c1,,,,MIC,H37Rv,,agar,>12.5 µg/mL
CO/N=C1/N=C(C)C(=N)N1c1ccccc1,,,,inhibition,H37Rv,12.5 µg/mL,BACTEC,0%
COc1ccc(NC(=S)NNC(=O)c2sc3ccc(Cl)cc3c2Cl)cc1,,,,inhibition,H37Rv,6.25 µg/mL,BACTEC,0%
COc1cc(C(O)(CCN(C)C)C(c2cc(-c3cccc(C)c3)cnc2OC)c2cccc(OC)c2F)cc(OC)n1,,,,MIC90,H37Rv,,resazurin,7.9 µM
O=C(Nc1ccccc1)c1cccc2nc3ccccc3nc12,,,,MIC,H37Rv 27294,,,3.12 µg/mL
Cc1ccccc1NC(=S)NNC(=O)c1ccncc1,,,,MIC,INH resistant,,,10.88 µM
NC(=O)C1=C(C(=O)O)CCC1,,,,MIC bound,H37Rv,,BACTEC,>12.5 µg/mL
NNC(=O)c1ccncc1,,ethA D1109-37,,MIC,81.10,,resazurin,0.025 µg/mL
O=c1nc(-c2ccc([N+](=O)[O-])cc2Cl)ss1,,,,MIC90,H37Rv,,broth dilution,8 µg/mL

Repeating the final 5 entries:

SMILES | cells | mutations | conditions | endpoint | strain or isolate | tested at | method | result
O=C(Nc1ccccc1)c1cccc2nc3ccccc3nc12 |  |  |  | MIC | H37Rv 27294 |  |  | 3.12 µg/mL
Cc1ccccc1NC(=S)NNC(=O)c1ccncc1 |  |  |  | MIC | INH resistant |  |  | 10.88 µM
NC(=O)C1=C(C(=O)O)CCC1 |  |  |  | MIC bound | H37Rv |  | BACTEC | >12.5 µg/mL
NNC(=O)c1ccncc1 |  | ethA D1109-37 |  | MIC | 81.10 |  | resazurin | 0.025 µg/mL
O=c1nc(-c2ccc([N+](=O)[O-])cc2Cl)ss1 |  |  |  | MIC90 | H37Rv |  | broth dilution | 8 µg/mL